Data as given in PubChem BioAssay AID504761 (Drosophila RNAi Screening Center, 2011).

Test: 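Fly genes whose silencing reduces dengue virus type 2 infection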 (primary screen)
Cells: D.Mel-2 cells from Drosophila
Reagent: long dsRNA against Drosophila genes
Conditions: infection with dengue virus type 2; dose and infection time not stated
Measurement: 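Cells stained for dengue envelope protein and imaged; percent of infected cells per well on duplicate plates, ranked by infection, with stained nuclei counted for cell number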
Direction: infection score: higher = more virus-infected cells; cell count: higher = more cells in the well
Hit rule: 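Very low infection ranking in both replicate wells (chance probability at most 0.065), then a retest showing infection dropped 1.5-fold or more at p below 0.05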
Calls: active = confirmed: knock-down lowers infection; inactive = not picked or not confirmed
In all, the deposit lists about 22,000 reagents; shown is a random part of those that have a named target and a result. In the full data, 116 (0.52%) were called active. 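Calls depend on retest data that are not deposited; infection was ranked per plate without normalising between plates; the unit of the infection score is not given.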 Raw values vary from plate to plate and are shown uncorrected. The numbers tell different reagents against one gene apart. Further read-outs or replicates are left out here. The record does not give: the amount of reagent, the time to read-out.

{"predicted target": "Or85f", "dsRNA no.": 1, "infection score, replicate 1": 5.02, "cell count, replicate 1": 7151, "activity call": "inactive"}
{"predicted target": "CG11839", "dsRNA no.": 1, "infection score, replicate 1": 0.25, "cell count, replicate 1": 6428, "activity call": "inactive"}
{"predicted target": "CG17751", "dsRNA no.": 1, "infection score, replicate 1": 2.26, "cell count, replicate 1": 6585, "activity call": "inactive"}
{"predicted target": "CG17751", "dsRNA no.": 2, "infection score, replicate 1": 1.27, "cell count, replicate 1": 6202, "activity call": "inactive"}
{"predicted target": "CG17751", "dsRNA no.": 3, "infection score, replicate 1": 2.22, "cell count, replicate 1": 5502, "activity call": "inactive"}
{"predicted target": "gd", "dsRNA no.": 1, "infection score, replicate 1": 1.07, "cell count, replicate 1": 6473, "activity call": "inactive"}
{"predicted target": "CG32713", "dsRNA no.": 1, "infection score, replicate 1": 3.16, "cell count, replicate 1": 5704, "activity call": "inactive"}
{"predicted target": "Pif1", "dsRNA no.": 1, "infection score, replicate 1": 3.4, "cell count, replicate 1": 6501, "activity call": "inactive"}
{"predicted target": "CG30289", "dsRNA no.": 1, "infection score, replicate 1": 4.26, "cell count, replicate 1": 5381, "activity call": "inactive"}
{"predicted target": "fbp", "dsRNA no.": 1, "infection score, replicate 1": 7.47, "cell count, replicate 1": 6762, "activity call": "inactive"}
{"predicted target": "robl22E", "dsRNA no.": 1, "infection score, replicate 1": 2.15, "cell count, replicate 1": 6095, "activity call": "inactive"}
{"predicted target": "Cyp4c3", "dsRNA no.": 1, "infection score, replicate 1": 2.15, "cell count, replicate 1": 5909, "activity call": "inactive"}
{"predicted target": "Cyp4c3", "dsRNA no.": 2, "infection score, replicate 1": 3.54, "cell count, replicate 1": 6272, "activity call": "inactive"}
{"predicted target": "eIF2Bdelta", "dsRNA no.": 1, "infection score, replicate 1": 29.3, "cell count, replicate 1": 5641, "activity call": "inactive"}
{"predicted target": "Atg10", "dsRNA no.": 1, "infection score, replicate 1": 14.3, "cell count, replicate 1": 5656, "activity call": "inactive"}
{"predicted target": "ppk30", "dsRNA no.": 1, "infection score, replicate 1": 9.28, "cell count, replicate 1": 5336, "activity call": "inactive"}
{"predicted target": "pad", "dsRNA no.": 1, "infection score, replicate 1": 4.53, "cell count, replicate 1": 6110, "activity call": "inactive"}
{"predicted target": "pad", "dsRNA no.": 2, "infection score, replicate 1": 11.9, "cell count, replicate 1": 5986, "activity call": "inactive"}
{"predicted target": "CG1486", "dsRNA no.": 1, "infection score, replicate 1": 1.71, "cell count, replicate 1": 6827, "activity call": "inactive"}
{"predicted target": "CG1486", "dsRNA no.": 2, "infection score, replicate 1": 10.4, "cell count, replicate 1": 1721, "activity call": "inactive"}
{"predicted target": "CG6901", "dsRNA no.": 1, "infection score, replicate 1": 7.72, "cell count, replicate 1": 6399, "activity call": "inactive"}
{"predicted target": "CG6901", "dsRNA no.": 2, "infection score, replicate 1": 2.04, "cell count, replicate 1": 6072, "activity call": "inactive"}

Part of the list above in another layout.
predicted target	dsRNA no.	infection score, replicate 1	cell count, replicate 1	activity call
eIF2Bdelta	1	29.3	5641	inactive
Atg10	1	14.3	5656	inactive
